Anti-infective test results gathered from many reports (values: NIAID ChemDB through PubChem).

Common to all: enzyme or target tests; organism: HIV-1; target: Reverse transcriptase; read by: nucleotide incorporation / radiometric; endpoint: IC50

ICn is the concentration giving n% inhibition. Rows are shuffled and stem from different studies. Two numbers with a dash give a range or band. An empty or dashed field is not shown.

structure	strain or isolate	mutations	result
Nc1ncnc2c1ncn2[C@H]1C[C@H](O)[C@@H](COP(=O)(O)O)O1			>10 µM
CCN1c2ncc(CCOc3cccc4c3CCCN4CC(=O)O)cc2C(=O)N(C)c2cccnc21	WT		<0.1 µM
CCN1c2ncccc2NC(=O)c2cc(CCc3ccccc3)cnc21		RT-Y181C	>1 µM
CCN1c2ncc(CCOc3ccc(S(N)(=O)=O)c4ccccc34)cc2C(=O)N(C)c2cccnc21	WT		<0.1 µM
Cc1cccc(Cl)c1-n1nnnc1SCC(=O)Nc1ccccc1[N+](=O)[O-]			<2 µM
Fc1cccc(F)c1C1SCc2nc3ccccc3n21	IIIB		15 µM
CCN1c2ncc(CCOc3ccc(CC(=O)O)c4ccccc34)cc2C(=O)N(C)c2ccc(F)nc21	WT		<0.1 µM
Nc1ncnc2c1ncn2CCOCP(=O)(O)OP(=O)(O)OP(=O)(O)O			0.18 µM
Cc1cc2c(C(C)C)c(O)c(O)c3c(N)oc(/c1=c1/c(C)cc4c(C(C)C)c(=O)c(=O)c5c(N)oc1c45)c23			>10 µM
CCN1c2ncc(CCOc3ccc(CC(C)C(=O)O)c4ccccc34)cc2C(=O)Nc2c(C)cc(Cl)nc21	WT		<0.1 µM
Cc1cc(C)c(-n2nnnc2SCC(=O)Nc2ccc(S(N)(=O)=O)cc2)c(C)c1			<2 µM
Nc1c(S(=O)(=O)O)cc2c3c(cc(S(=O)(=O)O)cc13)C(=O)N(NC(=O)N/N=C\c1ccc(-c3ccc(C=O)cc3)cc1)C2=O			1.43 µM
CC(C)c1c(CO)cn(Cc2ccncc2)c1Sc1cc(F)cc(F)c1			0.63 µM
CC(C)=CCn1cc2c(c1)S(=O)(=O)c1cc(Cl)ccc1NC2=S			4.2–5.6 µM
Nc1ncnc2c1ncn2[C@@H]1C[C@H](COP(=O)(O)OP(=O)(O)OP(=O)(O)O)C2CC21			15 µM
CCN1c2ncc(CCc3ccccc3)cc2C(=O)Nc2c(C)ccnc21		RT-Y181C	<1 µM
CC(C)=CCN1Cc2cccc3[nH]c(=S)n(c23)C[C@@H]1C		RT-E89G	5 µM
CC(C)=CCC[C@@H](C)C1CC[C@]2(C)CC=C(C=O)C1(C=O)[C@@H]2O			>100 µM
CNc1nc(Nc2ccc(C)cc2)nc(Nc2ccc(C)cc2)n1			>200 µM
CCN1c2ncc(CCOc3ccc(CCC(=O)O)c4ccccc34)cc2C(=O)Nc2c(C)ccnc21	WT		<0.1 µM
NNC(=O)NN1C(=O)c2cc(S(=O)(=O)[O-])cc3c(N)c(S(=O)(=O)[O-])cc(c23)C1=O			>100 µM
Cc1ccc(CCNC(=S)Nc2ccc(Br)cn2)cc1			0.1 µM
Cc1cn([C@H]2C=C[C@@H](COP(=O)(O)OP(=O)(O)OP(=O)(O)O)O2)c(=O)[nH]c1=O		RT-N137A	0.18 µM
CC(=O)O[C@H]1C2(C=O)C(C=O)=CC[C@@]1(C)CCC2[C@H](C)CCC=C(C)C			40 µM
CC(C)=CCn1cc2c(c1)S(=O)(=O)c1cc(Cl)ccc1NC2=O			1.8–2.4 µM
CCC1(c2ccc(CCc3ccccc3)cc2)Oc2ccccc2-n2cccc2C1=O		RT-K103N	>10 µM
CCOC(=O)c1cn(Cc2ccncc2)c(Sc2cc(F)cc(F)c2)c1C(C)C			0.17 µM
CCN1c2ncc(CCOc3cc[n+]([O-])cc3)cc2C(=O)N(C)c2ccc(Cl)nc21		RT-Y181C	<1 µM
Cc1cc(C)cc(CN2C(C)C(=O)Nc3ccc(Cl)cc3S2(=O)=O)c1			0.69 µM
CCC1(c2ccc(COc3ccccc3Cl)cc2)Oc2ccccc2-n2cccc2C1=O		RT-V106A	5 µM
C#C[C@]1(COP(=O)(O)OP(=O)(O)OP(=O)(O)O)CC[C@@H](n2ccc(N)nc2=O)O1		RT-M184V	>1 µM
CCC1(c2ccc(COc3cccc(Cl)c3)cc2)Oc2ccccc2-n2cccc2C1=O		RT-Y188L	>10 µM
CCN1c2ncc(CSc3ncccn3)cc2C(=O)N(C)c2ccc(Cl)nc21		RT-Y181C	<1 µM
C=C(CC(=O)O)c1ccc(OCCc2cnc3c(c2)C(=O)N(C)c2cccnc2N3CC)c2ccccc12		RT-V106A	>1 µM
CC(=O)Oc1ccc(OC(C)=O)c(C[C@@]2(C)C3CCC[C@@](C)(CC[C@@]4(C)C5=CCCC(C)(C)[C@H]5CC[C@@H]4C)C3=CC[C@H]2C)c1			41 µM
CC(C)c1c(CO)cn(Cc2ccncc2)c1Sc1cc(Cl)cc(Cl)c1			0.2 µM
O=C(/C=C/c1ccc(O)c(O)c1/C=C/c1ccc(O)c(O)c1)O[C@H](Cc1ccc(O)c(O)c1)C(=O)O			59.28 µg/mL
Cc1cc(C)c(-n2nnnc2S(=O)CC(=O)Nc2ccccc2[N+](=O)[O-])c(C)c1			<2 µM
CCC(C)Oc1cc(=O)[nH]c(S(=O)(=O)c2cc(C)cc(C)c2)n1	IIIB		23.7 µM
O=C(O)CN1CC2c3cc4c5c6c3-c3c(cc7c8c3C6C3c6c-5c(cc5ccc9cc(c-8c3c9c65)C7)C4)C2C1C(=O)O			1 µM
c1ccc(C2OCc3nc4ccccc4n32)cc1	IIIB		775 µM
C[C@H]1C(=O)Nc2ccc(Cl)cc2S(=O)(=O)N1Cc1c(F)cccc1F			0.26 µM
O=C1CSC(c2c(F)cccc2F)N1c1cccc(Br)n1			0.91 µM
O=C(CSc1nnnn1-c1cccc(Cl)c1Cl)Nc1ccccc1[N+](=O)[O-]			<2 µM
CCN1c2ncc(C=O)cc2C(=O)N(C)c2ccc(Cl)nc21		RT-Y181C	<1 µM
CC1C(=O)Nc2ccc(Cl)cc2S(=O)(=O)N1Cc1c(F)cccc1F			0.25 µM
Cc1cccc(Sc2c(C(C)C)c(CO)cn2Cc2ccncc2)c1			0.51 µM
Cc1cc(C)cc(S(=O)(=O)c2c(C(=O)NNCCO)[nH]c3ccc(Cl)cc23)c1		RT-Y188L	>40 µM
O=C(/C=C/c1ccc(O)c2c1[C@H](C(=O)O)[C@@H](c1ccc(O)c(O)c1)O2)O[C@H](Cc1ccc(O)c(O)c1)C(=O)O			>100 µg/mL
CCC1(c2cccc(Cl)c2)Cc2ccccc2-n2cccc2C1=O		RT-Y188L	>10 µM
CCN1c2ncc(CCc3ccccc3)cc2C(=O)N(C)c2ccc(Cl)nc21	WT		<1 µM
CCN1c2ncc(CCOc3ccc(C(=O)O)c4ccccc34)cc2C(=O)N(C)c2cccnc21		RT-K103N Y181C	0.1–1 µM
CCC1(c2cccc(N)c2)Oc2ccccc2-n2cccc2C1=O		RT-Y188L	>10 µM
Cc1cc(C)cc(Sc2c(C(C)C)c(COC(N)=O)cn2Cc2ccncc2)c1			0.25 µM
C[C@@H]1C(=O)Nc2ccc(Cl)cc2S(=O)(=O)N1Cc1c(F)cccc1F			7.4 µM
CC1(C)C(O[C@@H]2O[C@H](C(=O)O)[C@@H](O)[C@H](O)[C@H]2O[C@@H]2O[C@H](C(=O)O)[C@@H](O)[C@H](O)[C@H]2O)CC[C@]2(C)C3=CC=C4C5C[C@@](C)(C(=O)O)CC[C@]5(C)CC[C@@]4(C)[C@]3(C)CCC12			3.1 µg/mL
CCN1c2ncc(CCOc3ccc(/C=C(\C)C(=O)O)c4ccccc34)cc2C(=O)Nc2c(C)cc(F)nc21		RT-Y188L	>1 µM

A second listing of 4 rows from above:

CCC1(c2cccc(N)c2)Oc2ccccc2-n2cccc2C1=O ; mutations: RT-Y188L ; result: >10 µM
Nc1ncnc2c1ncn2CCOCP(=O)(O)OP(=O)(O)OP(=O)(O)O ; result: 0.18 µM
Fc1cccc(F)c1C1SCc2nc3ccccc3n21 ; strain or isolate: IIIB ; result: 15 µM
Nc1ncnc2c1ncn2[C@@H]1C[C@H](COP(=O)(O)OP(=O)(O)OP(=O)(O)O)C2CC21 ; result: 15 µM